From ChEMBL document CHEMBL1125007 (J Med Chem, 1990) come the findings set out here.

The test system of assay [1] is P388. Put plainly: Optimal dose (i.p.) given after inoculation with wild type 10 E 6 P388/W leukemia cell lines, measured on day 1.
For assay [2], the system named is P388. Kind of assay: Increase in life span of the drug treated animals against P388 leukemia when treated at a optimal dose of 65 mg/kg.

Turning to `CSc1ccc(N(CCCl)CCCl)cc1`, in the assay with P388 [1], the OD was determined as 65 mg/kg.
For orientation: ILS means how much longer treated animals lived than controls. A high value points to much gain in survival. In the assay with P388 [1], `COc1ccc(N(CCCl)CCCl)cc1` registered an OD of 65 mg/kg. In the assay with P388 [2], this molecule came in with an ILS of 36%.
On the same counts, the results for `Cc1ccc(N(CCCl)CCCl)cc1` are 65 mg/kg and 22%.
`CS(=O)(=O)c1ccc(N(CCCl)CCCl)cc1` had an OD with P388 [1] of 100 mg/kg.
